Measurements as given in patent US20240383784A1, “ANTIMICROBIAL SYSTEM AND METHOD” (KEMIRA OYJ, priority 2021, published 2024).

Experiment: Corrosion testing following ASTM G31-72, steel coupons in white water / process water
Conditions: Example 3; 0.08 ppm Compound A; all coupons; 7 days, 55° C.

**Q.** Which corrosion observed does the source give for `Cc1ccc(S(=O)(=O)C=CC#N)cc1` [Compound A, 3-[(4-methylphenyl)sulphonyl]-2-propenenitrile] here?
**A.** no corrosion
